Laboratory results: PubChem BioAssay AID624099 (ICCB-Longwood, 2012)
Purpose: 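Host factors E2 relies on to silence an HPV18 LCR reporter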 (primary screen). System: human C33A cervical carcinoma cells (HPV-negative) stably expressing BPV1 E2 and an HPV18 LCR luciferase reporter. Knock-down reagent: siRNA pool against human genes, 40 nM. Time to read-out: 72 h. Measured: 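Per-well luciferase luminescence, z-scored on each plate against the plate mean and SD with control wells left out, then averaged across three replicate plates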. Scale: mean z-score and z-score: higher = stronger reporter signal, weaker E2 silencing. Call rule: 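Mean z ≥ 2 together with z ≥ 2 in two or more of the three replicates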.
The deposit covers about 21,000 reagents; below is a part drawn at random. 497 of all reagents (2.4%) were called active. 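Higher z means weaker E2 silencing; only reporter increases were scored, and knock-downs that hurt cell survival may mask genuine repressor factors.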 Entries without a mark were called inactive.

| Target gene | PubChem SID | mean z-score | z-score, replicate A | z-score, replicate B | z-score, replicate C |
| --- | --- | --- | --- | --- | --- |
| STAB1 | SID134318283 | -0.94 | -0.68 | -0.95 | -1.2 |
| ELAVL3 | SID134315614 | 0.09 | 0.49 | 0 | -0.23 |
| LOC388300 (retired record) | SID134328700 | -0.37 | -0.09 | -0.7 | -0.31 |
| NPM1 | SID134319764 | -1.08 | -1.22 | -1.03 | -0.98 |
| ST3GAL5 | SID134315874 | -0.5 | -0.77 | -0.36 | -0.37 |
| GAA | SID134313729 | -0.21 | -0.05 | -0.48 | -0.09 |
| ENO4 | SID134328165 | -0.14 | -0.3 | -0.17 | 0.05 |
| KCNA2 | SID134311630 | -0.43 | -0.39 | -0.32 | -0.59 |
| COQ7 | SID134321238 | 0.81 | 0.89 | 0.64 | 0.89 |
| OTOP3 | SID134322302 | -0.2 | -0.25 | -0.58 | 0.23 |
| AMPH | SID134315896 | 0.29 | 0.47 | 0.32 | 0.08 |
| DEFB118 | SID134319258 | -0.52 | -0.73 | -0.46 | -0.36 |
| REM1 | SID134314226 | -0.41 | -0.4 | -0.81 | -0.02 |
| AGXT | SID134313766 | -0.18 | -0.26 | -0.09 | -0.2 |
| SVOPL | SID134312394 | -0.37 | -0.8 | -0.28 | -0.05 |
| ARHGAP21 | SID134310628 | -0.68 | -0.49 | -0.74 | -0.8 |
| AJAP1 | SID134314576 | -1.14 | -0.81 | -1.34 | -1.27 |
| GABBR2 | SID134311021 | -1.42 | -1.55 | -1.57 | -1.14 |
| HLA-F | SID134317623 | 0.14 | 0.35 | 0 | 0.06 |
| STPG3 | SID134329868 | -1.26 | -1.09 | -1.62 | -1.06 |
| ATP1B4 | SID134314334 | -0.2 | -0.08 | -0.37 | -0.14 |
| LOC286478 (retired record) | SID134326211 | 0.83 | 0.93 | 0.58 | 0.96 |
| PREPL | SID134311331 | -0.19 | -0.22 | -0.24 | -0.1 |
